A mixed list of measured activities; the numbers were collected in NIAID ChemDB.

Shared fields: tests in culture; agent: Mycobacterium tuberculosis

MIC50, MIC90 and the like: level of inhibition, or share of isolates inhibited.

compound | tested at | strain | mutations | read by | endpoint | value
O=C(O)c1cn(-c2ccc(F)cc2F)c2cc(N3CCN(C(=O)c4ccco4)CC3)c(F)cc2c1=O |  | ATCC35801 |  |  | MIC | 6.29 µM
CC[n+]1c2ccc(C)cc2nc2c3ccccc3c(N)cc21.[Cl-] | 12.5 µg/mL | H37Rv |  | BACTEC | inhibition | 99%
NC[C@@H]1O[C@H](O[C@H]2[C@@H](O)[C@H](O[C@@H]3[C@@H](O)[C@H](N)C[C@H](N)[C@H]3O[C@H]3O[C@H](CO)[C@@H](O)C[C@H]3N)O[C@@H]2CO)[C@H](N)[C@@H](O)[C@@H]1O[C@H]1O[C@H](CO)[C@@H](O)[C@H](O)[C@@H]1O |  | H37Rv (isoniazid-resistant) |  |  | EC50 | 25–50 µg/mL
CN(C)CCCN1c2ccccc2Sc2ccc(Cl)cc21 |  | ATCC 27294 |  |  | MIC | 10 µg/mL
COC(=O)c1cc([N+](=O)[O-])cc2c(=O)c3cc([N+](=O)[O-])ccc3oc12 | 4 µg/mL | H37Rv |  |  | inhibition | inactive
CN(C)C/C=C(\c1ccc(O)cc1)c1ccc(-c2ccc(Br)cc2)cc1 |  | H37Rv |  |  | MIC | 5 µg/mL
O=C(O)c1cccc2oc3ccc([N+](=O)[O-])cc3c(=O)c12 | 32 µg/mL | H37Rv |  |  | inhibition | inactive
CN(C)C/C=C(\c1ccc(N)cc1)c1ccc(-c2ccc(Br)cc2)cc1 |  | ALI 536 |  |  | MIC | ≤5 µg/mL
O=C(O)c1cn2c(n1)CN(c1cc3c(cc1[N+](=O)[O-])c(=O)c(C(=O)O)cn3C1CC1)CC2 |  | ATCC35801 |  |  | MIC | 3.78 µM
CCCCNC(=S)N=Nc1c(O)n(C)c2ccc(C)cc12 |  | H37Rv |  | broth dilution / resazurin | EC50 | >100 µg/mL
NC(=O)C1=C[C@H]2[C@H]3C=C[C@@]2(O)C(=O)O[C@@H]3O1 |  | RMP-R |  |  | MIC | 6.3 µg/mL
CCOC(=O)Nc1cc(N)c2c(n1)OCC(c1ccc(OC)cc1)=N2 |  | H37Rv |  |  | EC50 | >12.5 µg/mL
COC1=C(C2=C(OC)C(=O)c3cc4c(c(O)c3C2=O)C(=O)OC(C)C4)C(=O)c2c(cc3c(c2O)C(=O)OC(C)C3)C1=O |  | H37Rv |  | BACTEC | MIC bound | >12.5 µg/mL
CC(C)[C@@H](C)/C=C/[C@@H](C)[C@H]1CCC2[C@@]34C=C[C@]5(C[C@@H](O)CC[C@]5(C)C3CC[C@@]21C)OO4 |  | H37Rv |  |  | MIC | 1 µg/mL
Cc1cc(-c2cc3c(cc2F)c(=O)c(C(=O)O)cn3C2CC2)cc(C)n1 |  | 1685-6 |  |  | MIC | 2 µg/mL
Cc1cc(N)cc2c(=O)c3ccccc3oc12 | 4 µg/mL | H37Rv |  |  | inhibition | inactive
NNC(=O)c1ccncc1 |  | H37Rv |  |  | MIC | 0.36 µM
Oc1c(N=NC(=S)Nc2ccccc2)c2cc(OC(F)(F)F)ccc2n1CN1CCOCC1 |  | H37Rv |  | broth dilution / resazurin | EC90 | >100 µg/mL
CCOC(=O)Nc1cc(N[C@H](C)C(O)c2ccc(O)cc2)c([N+](=O)[O-])c(N)n1 |  | H37Rv |  |  | EC50 | >12.5 µg/mL
N=C(N)N=Nc1ccc(O)cc1.ON(O)O |  | H37Rv |  | BACTEC | MIC bound | >12.5 µg/mL
O=[N+]([O-])[O][Ga]([O][N+](=O)[O-])[O][N+](=O)[O-] |  | Erdman |  |  | EC50 | <500 µM
O=C(NC1CCOC1=O)OCc1ccccc1 |  | H37Rv |  | BACTEC | MIC bound | >12.5 µg/mL
CCN(CC)C(=O)C1CCCN(c2cc3c(cc2[N+](=O)[O-])c(=O)c(C(=O)O)cn3C2CC2)C1 |  | ATCC35801 |  |  | MIC | 0.09 µM
CC(=O)OC/C=C(\C)CCC[C@H](C)CCC[C@H](C)CCCC(C)C |  | H37Rv |  |  | MIC | 16 µg/mL
O=c1oc2ccccc2c(O)c1C1=NN(c2ccccc2)C(c2ccc(O)cc2O)C1 |  | INHR-MTB | Isoniazid-resistant | agar | MIC90 | >6.25 µg/mL
CCOC(=O)N(c1ccc(S(N)(=O)=O)cc1)c1cc(Cl)c([N+](=O)[O-])c(N)n1 | 12.5 µg/mL | H37Rv |  |  | inhibition | 0%
O=c1oc2ccccc2c(O)c1C1=NN(c2ccccc2)C(c2ccc(Cl)cc2Cl)C1 |  | H37Rv |  | agar | MIC90 | 6.94 µg/mL
COC12c3c(C)cc(O)c4c(=O)occ(c34)C(=O)[C@@H]1[C@@]13COC(=O)c4c(O)cc(C)c(c41)C(=O)C2[C@H]3OC(C)=O |  | H37Rv |  | BACTEC | MIC | ≥12.5 µg/mL
Cc1c(N2CCSCC2)c([N+](=O)[O-])cc2c(=O)c(C(=O)O)cn(C(C)(C)C)c12 |  | H37Rv |  |  | MIC | 30.83 µM
COc1cccc(/C=C/C(=O)c2c(O)c3ccccc3oc2=O)c1O |  | H37Rv |  | agar | MIC90 | >6.25 µg/mL
CC[C@H]1OC(=O)[C@H](C)[C@@H](O[C@H]2C[C@@](C)(OC)[C@@H](O)[C@H](C)O2)[C@H](C)[C@@H](O[C@@H]2O[C@H](C)C[C@H](N(C)C)[C@H]2O)[C@](C)(OC)C[C@@H](C)C(=O)[C@H](C)[C@@H](O)[C@]1(C)O |  | 104396 |  |  | MIC | >4 µg/mL
O=C(O)c1cccc2oc3ccccc3c(=O)c12 | 8 µg/mL | H37Rv |  |  | inhibition | inactive
C=C1C(=O)O[C@H]2/C=C(/C)C(=O)C[C@@H]3OC(C)(C)O[C@@]3(C)C[C@H](OC(=O)/C(C)=C\C)[C@H]12 |  | H37Rv |  | BACTEC | MIC bound | >12.5 µg/mL
CN(C)C/C=C(/c1ccccc1)c1ccc(-c2ccc(Br)cc2)cc1 |  | ALI 258 |  |  | MIC | ≤5 µg/mL
CC(C)(C)NC(=O)c1cccc(C(N)=O)n1 | 6.25 µg/mL | H37Rv |  | resazurin | inhibition | -4%
CCNC(=S)N=Nc1c(O)n(C)c2ccc(C)cc12 |  | H37Rv |  | broth dilution / resazurin | EC90 | >100 µg/mL
Cc1onc(-c2c(F)cccc2F)c1C(=O)N1CCN(c2cc3c(cc2F)c(=O)c(C(=O)O)cn3C(C)(C)C)CC1 |  | ATCC35801 |  |  | MIC | 5.51 µM
Cc1c([N+](=O)[O-])cc2c(=O)c3cc([N+](=O)[O-])ccc3oc2c1C | 8 µg/mL | H37Rv |  |  | inhibition | inactive
COc1ccccc1N/N=c1\c2nc3ccccc3nc1n(-c1ccccc1C)c(=S)n2-c1ccccn1 | 12.5 µg/mL | H37Rv |  | BACTEC | inhibition | 80%
O=[N+]([O-])c1ccc(NC(=S)N=Nc2c(O)[nH]c3ccc(OC(F)(F)F)cc23)cc1 |  | H37Rv |  | broth dilution / resazurin | EC50 | 3.77 µg/mL
Cc1cc(C)c2oc3ccccc3c(=O)c2c1[N+](=O)[O-] | 2 µg/mL | H37Rv |  |  | inhibition | inactive
CN(C)C/C=C(/c1ccc(Br)cc1)c1ccc(-c2ccc(Br)cc2)cc1 |  | ALI 909 |  |  | MIC | 17 µg/mL
CC(Nc1ccnc(N)c1[N+](=O)[O-])/C(=N\O)c1ccc(O)cc1 |  | H37Rv |  |  | EC50 | >12.5 µg/mL
COc1ccc(CC2C3=C(CCCC3)CCN2c2cc3c(cc2[N+](=O)[O-])c(=O)c(C(=O)O)cn3C(C)(C)C)cc1 |  | ATCC35801 |  |  | MIC | 6.04 µM
C[C@H]1[C@H](C)CC[C@]2(C(=O)O)CC[C@]3(C)C(=CC[C@@H]4[C@@]5(C)CC[C@H](O)C(C)(C)[C@@H]5CC[C@]43C)[C@H]12 |  | H37Rv |  |  | MIC | 32 µM
Cc1cc2oc(=O)c(C3=NNC(c4ccc(O)cc4O)C3)c(O)c2cc1C |  | H37Rv |  | agar | MIC90 | 11.22 µg/mL
C=C1C(=O)O[C@@H]2C1[C@@H](O)C[C@H](C)[C@@H]1CCC(=O)[C@@]21C |  | H37Rv |  |  | MIC | 128 µg/mL
NNC(=O)c1ccncc1 |  | 9135 |  |  | MIC | ≥0.2 µg/mL
C=CCNc1nc(NC(=O)OCC)cc(NC(=O)OCC)c1[N+](=O)[O-] | 12.5 µg/mL | H37Rv |  |  | inhibition | 0%
COC(=O)C1=CO[C@H](C)[C@@H]2CN3CCc4c([nH]c5cc(OC)ccc45)[C@@H]3C[C@H]12 |  | H37Rv |  | BACTEC | MIC bound | >12.5 µg/mL
CNC(=S)N=Nc1c(O)n(C)c2ccc(OC(F)(F)F)cc12 |  | H37Rv |  | broth dilution / resazurin | EC50 | >100 µg/mL
CN(C)CC=C(c1ccc(Br)cc1)c1ccc(-c2ccc(Br)cc2)cc1 |  | ALI 3342 |  |  | MIC | 8.5 µg/mL
O=C(O)c1cn(C2CC2)c2cc(N3CCSCC3)c(F)cc2c1=O |  | ATCC35801 |  |  | MIC | 8.98 µM
CCOP(=O)(OCC)/C(C#N)=C\c1ccco1 | 12.5 µg/mL | H37Rv |  | BACTEC | inhibition | 0%
Cc1c(N2CCn3cc(C(=O)O)nc3C2)c([N+](=O)[O-])cc2c(=O)c(C(=O)O)cn(C3CC3)c12 |  | H37Rv |  |  | MIC | 0.42 µM
C[N+](C)(C)CCOC(=O)/C=C/c1cnc[nH]1.[OH-] | 12.5 µg/mL | H37Rv |  | BACTEC | inhibition | 12%
O=c1oc2ccccc2c(O)c1C1=NN(c2ccccc2)C(c2ccc(C(F)(F)F)cc2)C1 |  | INHR-MTB | Isoniazid-resistant | agar | MIC90 | >6.25 µg/mL
Cc1c(N2CCC(O)(c3ccc(Cl)cc3)CC2)c([N+](=O)[O-])cc2c(=O)c(C(=O)O)cn(C(C)(C)C)c12 |  | H37Rv |  |  | MIC | 24.32 µM
C[C@@H]1C[C@@H]2OC(=O)[C@]3(C)[C@H]2[C@@H](OC3(C)O)[C@]2(C)C(=O)C=C[C@@H]12 |  | H37Rv |  |  | MIC | 128 µg/mL
O=C(O)c1cn(C2CC2)c2cc(N3CCC(n4c(=O)[nH]c5cc(Cl)ccc54)CC3)c([N+](=O)[O-])cc2c1=O |  | ATCC35801 |  |  | MIC | 3.14 µM
C=C1C(=O)O[C@@H]2C[C@@]3(C)C=C[C@H](O)C(=C)[C@@H]3C[C@H]12 |  | H37Rv |  |  | MIC | 32 µg/mL
COc1c2c(c(OC)c3c1c(=O)c1ccccc1n3C)OCO2 |  | H37Rv |  | BACTEC | MIC bound | >128 µg/mL
CC1(C)CC[C@]2(C(=O)O)CC[C@]3(C)C(=CC[C@@H]4[C@@]5(C)CC[C@H](O)C(C)(C)[C@@H]5CC[C@]43C)[C@@H]2C1 |  | H37Rv |  |  | MIC | 64 µM
Cc1cnc(/C=N/NC(N)=S)cn1 |  | PAS-R |  |  | MIC | 12.5 µg/mL
Cc1ccc(NC(=S)N=Nc2c(O)n(C)c3ccc(C)cc23)cc1 |  | H37Rv |  | broth dilution / resazurin | EC50 | >100 µg/mL
COc1cc2c(cc1OC)CN(c1nc3c(cc1[N+](=O)[O-])c(=O)c(C(=O)O)cn3C1CC1)CC2 |  | ATCC35801 |  |  | MIC | 0.19 µM
CC(=O)NOC[C@H]1NC(=O)[C@@H](CONC(C)=O)NC1=O |  | H37Rv |  | BACTEC | MIC | ≥12.5 µg/mL
O=c1oc2ccccc2c(O)c1C1=NNC(c2ccc(Cl)cc2Cl)C1 |  | INHR-MTB | Isoniazid-resistant | agar | MIC90 | >6.25 µg/mL
CC1CN(C(=O)/C=C/C(=O)OC2CCCCC2)CCN1C(=O)/C=C/C(=O)OC1CCCCC1 |  | EMB-R |  |  | MIC | 12.5 µg/mL
C=C1C(=O)N[C@@H](C)C(=O)N[C@H](CC(C)C)C(=O)N[C@H](C(=O)O)[C@H](C)C(=O)N[C@H](CCCN=C(N)N)C(=O)N[C@@H](/C=C/C(C)=C/[C@H](C)[C@H](Cc2ccccc2)OC)[C@@H](C)C(=O)N[C@@H](C(=O)O)CCC(=O)N1C |  | H37Rv |  | resazurin | MIC | >53 µM
NC(=S)c1ncc(N)s1 | 12.5 µg/mL | H37Rv |  | BACTEC | inhibition | 44%
C=C1CC[C@@H](O)[C@]2(C)CC[C@@H]3[C@H](OC(=O)[C@H]3C)[C@@H]12 |  | H37Rv |  |  | MIC | >128 µg/mL
COC(=O)N/N=C(\c1nc2ccc([N+](=O)[O-])cc2[nH]c1=O)C(O)c1ccc(OC)c(OC)c1 | 6.25 µg/mL | H37Rv |  | resazurin | inhibition | -8%
Cc1cc(C)c2oc3ccc([N+](=O)[O-])cc3c(=O)c2c1[N+](=O)[O-] | 4 µg/mL | H37Rv |  |  | inhibition | inactive
CCOC(=O)[C@H]1[C@@]2(C(=O)OCC)n3ncc(C#N)c3N=C[C@@]12C(C)=O | 6.25 µg/mL | H37Rv |  | resazurin | inhibition | -1%
C=C(C)[C@@H]1CC[C@]2(C(=O)O)CC[C@]3(C)[C@H](CC[C@@H]4[C@@]5(C)CC[C@H](O)C(C)(C)[C@@H]5CC[C@]43C)[C@@H]12 |  | H37Rv |  |  | MIC | 32 µM
Cc1c(C(=O)CC(=O)C(=O)Nc2ccc(Cl)c(Cl)c2)[n+](=O)c2ccccc2n1[O-] |  | H37Rv |  | BACTEC | MIC bound | >12.5 µg/mL
CCNC(=S)N=Nc1c(O)[nH]c2ccc(C)cc12 |  | H37Rv |  | broth dilution / resazurin | EC50 | 6.962 µg/mL

MIC bound comes from a single tested concentration. a–b is a range or a potency band. Percent inhibition refers to the dose given; in toxicity tests it is the harm to the cells. Rows are shuffled and stem from different studies. For "inactive" no cut-off is given. An empty or dashed field is not shown. ECn: concentration that inhibits the pathogen or its effect by n%.